Results of unrelated studies side by side (data: NIAID ChemDB).

Common to all: whole-cell or culture tests; agent: HIV-1; endpoint: inhibition

Percent inhibition refers to the dose given; in toxicity tests it is the harm to the cells.

compound | cell line | mutations | conditions | read by | strain | dose | result
CC(C)CN(C[C@@H](O)[C@H](Cc1ccccc1)NC(=O)O[C@H]1CO[C@H]2OCC[C@H]21)S(=O)(=O)c1ccc2nc(NC3CCN(C4CCCC4)CC3)sc2c1 | MT-4 | - | - | reporter gene | LAI | 0.00947 µM | 90%
COc1ccc(-c2nnc(-c3cnc4ccccn4c3=O)s2)cc1 | HeLa | - | - | single cycle | NL4-3 | 100 µM | 28%
O=C(O)C(O)c1ccccc1 | MT-2 | - | - | syncytia | IIIS | 50 µg/mL | 100%
C[C@H]1[C@@H](OC(=O)CCC(=O)O)O[C@@H]2O[C@@]3(C)CC[C@H]4[C@H](C)CC[C@@H]1[C@@]24OO3 | Jurkat cells | - | - | p24 | NL4-3 | 0.6 µM | 48%
CCCCCCCCCCCCCCCC(=O)NC1C(COP(=O)(O)OC2CC(COP(=O)(O)OC3C(O)C(CO)OC3n3cnc4c(N)ncnc43)OC2n2cnc3c(N)ncnc32)OC(n2cnc3c(N)ncnc32)C1O | - | - | - | syncytia | - | 100 µM | 99%
Cc1ccc(-c2nnc(-c3cnc4ccccn4c3=O)s2)cc1 | HeLa | - | - | single cycle | NL4-3 | 100 µM | 51%
Cc1cn([C@H]2C[C@H](N=[N+]=[N-])[C@@H](CO)O2)c(=O)[nH]c1=O | PBMC | - | - | RT activity | Ba-L (R5-tropic) | 0.014 µM | 70%
CC(C)(C)OC(=O)Nc1cccc(C(=O)N2CCN(C(=O)C(=O)c3c[nH]c4cccc(Cl)c34)CC2)c1 | HeLa + HELA CD4+/CCR5 | - | - | luciferase | - | 10 µM | 97%
Cc1cn([C@H]2C[C@H](N=[N+]=[N-])[C@@H](CO)O2)c(=O)[nH]c1=O | Macrophage + Monocytes/macrophages | - | - | p24 | IIIB | 10 µg/mL | 95%
CC(=O)CCC(=O)NCCCOCCOCCCNC(=O)CNC(=O)[C@H](CS)NC(=O)[C@@H](NC(=O)[C@@H](NC(=O)[C@H](CO)NC(=O)[C@@H](N)CS)C(C)C)[C@@H](C)O | PBMC(PHA STIM.) + PBMC | - | - | p24 | IIIB | 0.132 µM | 20%
Cc1ccc(C)c(NS(=O)(=O)c2cc(C(=O)NCc3ccccn3)ccc2Cl)c1 | PBMC | Nevirapine resistant | - | p24 | Clinical isolate | 2.5 µM | 90%
O=C1c2c(O)c(O)cc(=O)n2CCN1Cc1cccc(Cl)c1 | MT-4 | - | - | p24 / ELISA | - | 0.5 µM | ≥95%
COc1c(C)c2c(c(O)c1C/C=C(\C)CCC(=O)O)C(=O)OC2 | HUT78/HIV-1(SF162) + HUT 78 | - | chronic infection | RT activity | SF162 | 10 µM | 0%
CC(C)CN(C[C@@H](O)[C@H](Cc1ccccc1)NC(=O)O[C@H]1CCOC1)S(=O)(=O)c1ccc(O)c(N)c1 | CEM | - | - | p24 | IIIB | 0.1 µM | 90%
C[C@@H]1CN(C(=O)c2ccccc2)CCN1C(=O)C(=O)c1c[nH]c2cccc(F)c12 | HeLa + HELA CD4+/CCR5 | - | - | luciferase | - | 10 µM | >98%
C=C1C[C@H](n2cc(C)c(=O)[nH]c2=O)O[C@@H]1CO | MT-4 | - | - | cytopathic effect | - | 500 µg/mL | 0%
CC(=O)N[C@H]1CSSC[C@@H](C(=O)N[C@@H](Cc2ccc(O)cc2)C(=O)O)NC(=O)[C@H](CCCCN)NC(=O)[C@H](CC(N)=O)NC1=O | MT-4 | - | 6 d | RT activity | NL4-3 | 2.5 µM | 31%
Cc1cc(C)cc(C[C@@H]2[C@H](O)[C@@H](O)[C@@H](Cc3ccccc3)N(Cc3ccc4[nH]nc(N)c4c3)C(=O)N2Cc2ccccc2)c1 | - | - | - | - | HXB2 | 0.1 µM | 90%
CCCCC/C=C/C=C1/C(=O)C=CC1C/C=C\CCCC(=O)O | U-937 | - | - | p24 / ELISA | - | 3.1 µM | 85%
COc1cccc(C2=CC(c3cnc(C(C)C)cn3)SC(N)=N2)c1 | TZM-bl | - | - | p24 / ELISA / antigen | NL4-3 | 10 µg/mL | 24%
O=C(CN1c2c(-c3ccccc3)n[nH]c2-c2ccccc2S1(=O)=O)N/N=C/c1ccccc1[N+](=O)[O-] | PBL | - | - | - | - | 47.3 µM | 90%
CC(C)c1cnc(C2C=C(c3ccccc3Cl)N=C(N)S2)cn1 | TZM-bl | - | - | p24 / ELISA / antigen | NL4-3 | 10 µg/mL | 68%
COc1ccc(Br)c2[nH]cc(C(=O)C(=O)N3CCN(C(=O)c4ccccc4)CC3)c12 | HeLa + HELA CD4+/CCR5 | - | - | luciferase | - | 10 µM | >98%
CC(C)[C@H](NC(=O)[C@H](CO)NC(=O)[C@@H](N)CSSCC(=O)O)C(=O)N[C@H](C(=O)N[C@@H](CSSCC(=O)O)C(=O)NCC(=O)O)[C@@H](C)O | PBMC(PHA STIM.) + PBMC | - | - | p24 | p13 | 1.8 µM | 80%
CC(C)c1cnc(C2C=C(c3ccccc3F)N=C(N)S2)cn1 | TZM-bl | - | - | p24 / ELISA / antigen | NL4-3 | 10 µg/mL | 70%
COc1ccc(F)c2c(C(=O)C(=O)N3CCN(C(=O)c4ccccc4)C[C@H]3C)c[nH]c12 | HeLa + HELA CD4+/CCR5 | - | - | luciferase | - | 10 µM | >98%
O=c1c(-c2nnc(-c3ccccc3)s2)cnc2ccccn12 | HeLa | - | - | single cycle | NL4-3 | 100 µM | 33%
COCCNC(=O)[C@@H](NC(=O)[C@H](Cc1ccc(OC)c(OC)c1OC)C[C@H](O)[C@H](Cc1ccccc1)NC(=O)OC(C)(C)C)C(C)C | MT-2 | - | - | RT activity | MN | 0.03 µM | 90%
C[C@H](CCCC(C)(C)O)[C@H]1CC[C@H]2[C@@H]3CC=C4C[C@@H](O)CC[C@]4(C)[C@H]3CC[C@]12C | CEM | - | - | luciferase / single cycle | IIIB | 1 µM | >50%
O=C(C(=O)N1CCN(C(=O)c2ccccc2)CC1)c1c[nH]c2cc(F)c(Br)c(F)c12 | HeLa + HELA CD4+/CCR5 | - | - | luciferase | - | 10 µM | 97%
Nc1ccn([C@@H]2O[C@H](CO)C=C2F)c(=O)n1 | PBMC | RT-M184V | - | RT activity | - | 1.8 µM | 90%
CCCCCCCCCCCCCCCC(=O)NC1C(COP(=O)(O)OC2C(O)C(COP(=O)(O)OC3CC(CO)OC3n3cnc4c(N)ncnc43)OC2n2cnc3c(N)ncnc32)OC(n2cnc3c(N)ncnc32)C1O | - | - | - | syncytia | - | 100 µM | 91%
Cc1ccc(-c2ccc3c(c2)C=C(C(=O)Nc2ccc(C[N+](C)(C)C4CCOCC4)cc2)CCC3)cc1 | PBMC | - | - | p24 | CM1 CLADE C | 1 µM | 95.5%
FC(F)(F)Oc1ccc(Nc2ccc3cccc(Cl)c3n2)cc1 | PBMC | - | - | p24 / ELISA | AD8 | 5 µM | 71%
CC1=N/C(=C/c2cccc(Cl)c2)C(=O)N1n1c(-c2ccccc2)nc2ccccc2c1=O | CEM + CEM-SS | - | - | cytopathic effect / XTT | RF | 0.64 µM | 35%
Cc1cn([C@H]2C[C@H](N=[N+]=[N-])C([C@@H](O)CO)O2)c(=O)[nH]c1=O | MT-4 | - | - | cytopathic effect / trypan blue | IIIB | 200 µg/mL | 0%
Nc1ccn([C@@H]2C=C[C@H](CO)O2)c(=O)n1 | PBMC | RT-M184V | - | RT activity | - | 28.2 µM | 90%
CC(=O)N(O)CCCCCNC(=O)CCC(=O)N(O)CCCCCNC(=O)CCC(=O)N(O)CCCCCN | H9 | - | - | p24 | IIIB | 30 µM | 95%
COc1cccc2c(C(=O)C(=O)N3CCN(C(=O)c4ccccc4)C[C@H]3C)c[nH]c12 | HeLa + HELA CD4+/CCR5 | - | - | luciferase | - | 10 µM | >98%
Cc1cn([C@H]2C[C@H](O)[C@@H](C[N+](C)(C)CCO)O2)c(=O)[nH]c1=O | CEM + CEM-SS | - | - | plaque count / syncytia | IIIB | 100 µM | 44%
C[C@@H](O)[C@H](N)C(=O)N[C@H](C(=O)N[C@@H](CC(N)=O)C(=O)N[C@@H](Cc1ccc(O)cc1)C(=O)N[C@H](C(=O)O)[C@@H](C)O)[C@@H](C)O | A3.01 | - | - | RT activity | LAV | 0.001 µM | 75.7%
CC(C)c1cnc(C2C=C(c3cccc([N+](=O)[O-])c3)N=C(N)S2)cn1 | TZM-bl | - | - | p24 / ELISA / antigen | NL4-3 | 10 µg/mL | 85%
COc1ccc(Cl)c2[nH]cc(C(=O)C(=O)N3CCN(C(=O)c4ccc(N)cc4)C[C@H]3C)c12 | HeLa + HELA CD4+/CCR5 | - | - | luciferase | - | 10 µM | >98%
Cc1cc(C)c(S(=O)(=O)OCC2OC3OC4C(CO)OC(OC5C(CO)OC(OC6C(CO)OC(OC7C(CO)OC(OC8C(CO)OC(OC9C(C[n+]%10ccccc%10)OC(OC2C(O)C3O)C(O)C9O)C(O)C8O)C(O)C7O)C(O)C6O)C(O)C5O)C(O)C4O)c(C)c1 | MT-4 | - | - | cytopathic effect / trypan blue | LAV-1 | 1.95 µg/mL | 100%
C[C@@H](O)[C@H](N)C(=O)N[C@H](C(=O)N[C@@H](CO)C(=O)N[C@@H](Cc1ccc(O)cc1)C(=O)N[C@H](C(=O)O)[C@@H](C)O)[C@@H](C)O | A3.01 | - | - | RT activity | LAV | 0.001 µM | 72.9%
NS(=O)(=O)c1ccc(NC(=O)c2ccccc2SSc2ccccc2C(=O)Nc2ccc(S(N)(=O)=O)cc2)cc1 | CEM + CEM-SS | - | - | p24 | RF | 25 µM | 80%
CC(=O)N[C@H]1CSSC[C@@H](C(=O)N[C@@H](CCC(N)=O)C(=O)O)NC(=O)[C@H](Cc2cnc[nH]2)NC(=O)[C@H](Cc2ccccc2)NC1=O | MT-4 | - | 6 d | RT activity | NL4-3 | 2.5 µM | 0%
NCCC[C@@H](N)CC(=O)NCN | MT-4 | - | - | antigen | IIIB | 1 µg/mL | 80%

4 of the rows above, restated:

compound	cell line	mutations	conditions	read by	strain	dose	result
C[C@@H](O)[C@H](N)C(=O)N[C@H](C(=O)N[C@@H](CC(N)=O)C(=O)N[C@@H](Cc1ccc(O)cc1)C(=O)N[C@H](C(=O)O)[C@@H](C)O)[C@@H](C)O	A3.01	-	-	RT activity	LAV	0.001 µM	75.7%
CC(C)c1cnc(C2C=C(c3cccc([N+](=O)[O-])c3)N=C(N)S2)cn1	TZM-bl	-	-	p24 / ELISA / antigen	NL4-3	10 µg/mL	85%
Cc1cn([C@H]2C[C@H](N=[N+]=[N-])[C@@H](CO)O2)c(=O)[nH]c1=O	PBMC	-	-	RT activity	Ba-L (R5-tropic)	0.014 µM	70%
O=C(C(=O)N1CCN(C(=O)c2ccccc2)CC1)c1c[nH]c2cc(F)c(Br)c(F)c12	HeLa + HELA CD4+/CCR5	-	-	luciferase	-	10 µM	97%

Lines come from different laboratories, so protocols vary. An empty or dashed field is not shown.